Construct, isoform or probe ends are uncertain for at least one entry. For part of these data: At least one verdict was read from the data and is not stated in words by the source. For part of these data: Protein sequences can lack the tags named with them.
Tests used:
[1] = biological target: RegX3 WT (phosphorylated) (UniProt P9WGL9); test: EMSA; settings: recombinant protein, residues 1-227, label: 5' Cy5 (EMSA), 5' biotin (SPR), probe letters rebuilt from the primers and the genome
[2] = biological target: RegX3 WT (phosphorylated) (UniProt P9WGL9); test: SPR; settings: recombinant protein; residues 1-227; label: 5' Cy5 (EMSA), 5' biotin (SPR); probe letters rebuilt from the primers and the genome
RegX3 R202A = biological target: T1, RegX3 R202A (UniProt P9WGL9); test: SPR; settings: recombinant protein; residues 1-227; label: 5' Cy5 (EMSA), 5' biotin (SPR); probe letters rebuilt from the primers and the genome
T1 sequence (looked up): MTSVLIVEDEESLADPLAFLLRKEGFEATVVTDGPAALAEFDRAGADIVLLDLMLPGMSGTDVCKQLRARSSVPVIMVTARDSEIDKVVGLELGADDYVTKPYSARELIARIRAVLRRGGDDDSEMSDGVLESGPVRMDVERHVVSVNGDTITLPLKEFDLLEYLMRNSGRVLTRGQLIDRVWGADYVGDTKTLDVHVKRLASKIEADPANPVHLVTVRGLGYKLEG

Measured: binding result

ACCGGCTTGGGACCGGCACCGCGGTACTGTGTGCGTTCGGCACCGCGCTGCACCCGCGGTTCGGGCCGGATTCGTCCGCGCGGCACCGCCGTTCGGGCGC (double strand) [ppK1 promoter fragment]
binds: [1] | [2] | RegX3 R202A
